Consider eleven compounds from paper PMC3086806, “Mining a Cathepsin Inhibitor Library for New Antiparasitic Drug Leads” (PLoS Neglected Tropical Diseases, 2011).

The chains behind the UniProt entries cited, without tags or fusion partners. Residues count along the entry.
UniProt Q8IIL0, 243-492 limits assumed: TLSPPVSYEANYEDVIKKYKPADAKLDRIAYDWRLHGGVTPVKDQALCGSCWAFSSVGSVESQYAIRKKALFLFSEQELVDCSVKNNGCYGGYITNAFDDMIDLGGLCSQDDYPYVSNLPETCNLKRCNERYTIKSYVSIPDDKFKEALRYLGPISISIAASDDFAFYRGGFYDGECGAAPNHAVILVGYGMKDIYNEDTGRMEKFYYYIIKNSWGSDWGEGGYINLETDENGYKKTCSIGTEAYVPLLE
UniProt Q8I6U4, 244-484 limits assumed: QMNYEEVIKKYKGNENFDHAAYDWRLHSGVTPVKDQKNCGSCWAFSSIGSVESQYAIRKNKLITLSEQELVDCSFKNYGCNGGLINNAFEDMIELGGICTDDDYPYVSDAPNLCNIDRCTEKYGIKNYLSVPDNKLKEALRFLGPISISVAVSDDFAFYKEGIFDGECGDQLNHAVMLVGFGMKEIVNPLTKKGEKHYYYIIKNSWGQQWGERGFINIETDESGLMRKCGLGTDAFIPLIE

One test has as its target falcipain-3 (Plasmodium falciparum, UniProt Q8IIL0). The test can be described thus: Falcipain-3 protease inhibition assay (Z-Leu-Arg-AMC). The format is biochemical. To be noted: read-out: IC50 falcipain-3. Here is the method:
(§1) Recombinant cruzain, rhodesain, TbCatB, falcipain-2 and falcipain-3 were expressed as described previously, [39], [40], [41], [42]. Inhibitor stock solutions were prepared in DMSO and screened at 0.1 µM for cruzain and rhodesain, 1 µM for TbCatB and 50 nM for falcipain-3 (0.5% DMSO in assay). […] Protease inhibition assays for cruzain and rhodesain were carried out in 96 well plate format as described previously. Cruzain (4 nM), rhodesain (4 nM) or TbCatB (258 nM) was incubated with test compound in 100 mM sodium acetate, pH 5.5, containing 5 mM DTT and 0.01% Triton X-100 (buffer A), for 5 min at room temperature (the higher concentration of TbCatB was required due to its lower intrinsic activity against the fluorogenic substrate). Then buffer A containing Z-Phe-Arg-AMC (Bachem) was added to enzyme-compound mixture to give 10 µM substrate in a final assay volume of 200 µL. The rate of free AMC release was measured at excitation and emission wavelengths of 355 and 460 nm, respectively, with a microtiter plate spectrofluorimeter (SpectraMax M5, Molecular Devices) for 3 min. Percentage inhibition of test compound was calculated relative to the DMSO control (0% inhibition control). IC50 values were determined with Prism 4 software (GraphPad, San Diego, CA) using sigmoidal dose-response variable slope model.
(§2) Protease inhibition assays for falcipain-2 and falcipain-3 were carried out in 96 well plate format as described previously, [43] with modification for end-point readout. Falcipain-2 (21 nM) or falcipain-3 (78 nM) was incubated with test compound for 10 min at room temperature in 200 mM sodium acetate, pH 6, 10 mM DTT and 3.6% glycerol and 0.01% Triton X-100 (buffer B). Then buffer B containing Z-Leu-Arg-AMC (Bachem) was added to the enzyme-compound mixture to give 25 µM substrate in a final assay volume of 200 µL. After 15 min, 50 µL of 5 M acetic acid was added to each well to stop the reaction. End-point fluorescence was read in a spectrofluorimeter as above. The 0% inhibition control wells contained DMSO while 100% inhibition control wells contained 50 µM E-64 (Sigma). Percentage inhibition of test compound was calculated relative to the controls and IC50 curve fitting was performed with Prism 4 software as above.

The subject of test [1] is W2-strain P. falciparum parasites. The test can be described thus: P. falciparum growth inhibition assay. The format is cell-based, Plasmodium falciparum. To be noted: cultured W2 strain, 48 hours; for GI50: read-out: GI50 P. falc. W2. Here is the method:
The growth inhibition assay for P. falciparum was conducted as described previously. W2-strain P. falciparum parasites (1% parasitemia, 2% hematocrit) were cultured at 37°C in human red blood cells under the atmosphere of 3% O2, 5% CO2 balance N2 in 0.2 mL of per well in medium RPMI-1640 supplemented with 10% human serum in duplicate 96-well flat bottom culture plates in the presence of inhibitors. Tested compounds were serially diluted 1∶3 in the range 10,000 – 4.6 nM, with maximum DMSO concentration of 0.1%. Following 48 hours of incubation, the medium was removed and the cells were fixed in 2% formaldehyde in PBS. Parasite growth was evaluated by flow cytometry on a FACsort (Becton Dickinson) equipped with AMS-1 loader (Cytek Development) after staining with 1 nM DNA dye YOYO-1(Molecular Probes) in 100 mM NH4Cl, 0.8% NaCl. Parasitemias were determined from dot plots (forward scatter vs. fluorescence) using […] software (Becton Dickinson). IC50 values for growth inhibition were determined from plots of percentage control parasitemia over inhibitor concentration using GraphPad Prism software.

For a further test, the target named is falcipain-2 (Plasmodium falciparum, UniProt Q8I6U4). As to the kind of experiment: Falcipain-2 protease inhibition assay (Z-Leu-Arg-AMC). The format is biochemical. As to conditions: read-out: IC50 falcipain-2. Here is the method:
as §1, §2

The IC50 is the point on the concentration scale where inhibition reaches its midpoint. Usually GI50 stands for the concentration that inhibits growth by half. As to `COc1cccc(-c2ccc(C(=O)N[C@@H](CC(C)C)C(=O)NCC#N)cc2)c1`, the IC50 at falcipain-3 stood at 67 nM; on falcipain-2, 75 nM. For the same compound, the GI50 in test [1] was determined as 3500 nM.
On to `Cc1ccccc1-c1cccc(C(=O)N[C@@H](CC(C)C)C(=O)NCC#N)c1`, for which the IC50 at falcipain-3 came to 67 nM; on falcipain-2, 26 nM. For the same compound, in test [1], the GI50 is over 20000 nM.
With `CC(C)C[C@H](NC(=O)c1ccc(-c2ccc(S(C)(=O)=O)cc2)cc1)C(=O)NCC#N`, the figures for the IC50 on falcipain-3 and at falcipain-2 were 18 nM and 28 nM, respectively. For the same compound, the GI50 in test [1] is 2200 nM.
For `CSc1cccc(-c2cccc(C(=O)N[C@@H](CC(C)C)C(=O)NCC#N)c2)c1`, in that order: 28 nM, 8.8 nM and 3000 nM.
Take `CC(C)C[C@H](NC(=O)c1cc2c(C(F)(F)F)nn(C)c2s1)C(=O)NCC#N`: the IC50 was found to be 15 nM at falcipain-3 and 50 nM at falcipain-2. For the same compound, the GI50 in test [1] was 3500 nM.
Consider `CC(C)C[C@H](NC(=O)c1cccc(-c2ccccc2S(C)(=O)=O)c1)C(=O)NCC#N`, for which the IC50 at falcipain-3 is 16 nM. In test [1], the “GI50 P. falc. W2” value was “sub-micromolar” and the GI50 amounted to 840 nM. In addition, on falcipain-2, the IC50 amounted to 17 nM.
With `CC(C)C[C@H](NC(=O)c1ccc(-c2ccc(O)cc2)cc1)C(=O)NCC#N`, the IC50 at falcipain-3 was 28 nM; at falcipain-2 it was 78 nM. In addition, the GI50 in test [1] was determined as 4000 nM.
For `CC(C)C[C@H](NC(=O)c1ccc(-c2ccccc2F)cc1)C(=O)NCC#N`, in that order: 85 nM, 68 nM and over 20000 nM.
Regarding `CC(C)C[C@H](NC(=O)c1cc2c(-c3ccccc3)nn(C)c2s1)C(=O)NCC#N`, the IC50 on falcipain-3 came to 5.2 nM; at falcipain-2, 24 nM. Also, the GI50 in test [1] was over 20000 nM.
For `COc1ccc(-c2csc(C(=O)N[C@@H](CC(C)C)C(=O)NCC#N)c2)cc1`, in that order: 25 nM, 18 nM and 2700 nM.
As for `CC(C)C[C@H](NC(=O)c1ccc(-c2ccccc2Cl)s1)C(=O)NCC#N`, the IC50 on falcipain-3 was found to be 23 nM; at falcipain-2, 8.7 nM. The GI50 in test [1] turned out to be 2000 nM.
